# Screening data, single-dose tests

Source: ChEMBL document CHEMBL3988442, “University of Dundee, Small-Polar-MMV Screening Library” (2021).

Mtb glucose medium: 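Whole-cell growth test on Mycobacterium tuberculosis, read after 3 days in glucose-containing 7H9 medium; the read-out is not stated. Concentration: 500 µM. Higher reads as more growth inhibition (inferred: compounds with an IC50 in retests scored well above the rest). About 18,000 compounds were tested under these conditions; 7.9% (about 1,400) showed 50% or more at least once.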
Mtb cholesterol medium: 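Phenotypic screen: M. tuberculosis growth, cholesterol and DPPC medium, 4 days; the read-out is not stated. Tested at 500 µM. Higher reads as more growth inhibition (inferred: compounds with an IC50 in retests scored well above the rest). Of about 18,000 compounds tested this way, about 900 (5%) reached 50% or more in at least one test.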

Each number is a percent effect as filed. The record does not define 0% and 100%; most values in the screen are far below 50% and negative numbers occur (in some assays of this library far below -100). Many other results are left out here, so strong results are more common than in the screen. A dash means the value is not listed here; it may have been measured.

| # | compound | Mtb glucose medium | Mtb cholesterol medium |
|---|---|---|---|
| 1 | `CC(N)c1nc(-c2ccc(Br)cc2)c[nH]1` (centres undefined) | 91.69 | 101.6 |
| 2 | `COc1ccccc1C(O)CN` (centres undefined) | 24.49 | -0.2127 |
| 3 | `O=C(NCC(O)C1CC1)c1ccccc1C(F)(F)F` (centres undefined) | - | -4.722 |
| 4 | `CN(Cc1ccc2c(c1)OCO2)C(=O)c1cncs1` | 41.71 | 44.4 |
| 5 | `COCc1nc(CN)cs1` | 12.06 | - |
| 6 | `Cn1c(=O)[nH]c(=O)c2cccnc21` | 19.28 | - |
| 7 | `NCCCNS(=O)(=O)c1ccc(Cl)cc1` | 44.74 | - |
| 8 | `Cn1c(CO)nnc1SCC=Cc1ccccc1` | 75.58 | 56.7 |
| 9 | `Cn1cnnc1C1CCN(CC2CCOC2)CC1` (centres undefined) | -17.26 | - |
| 10 | `c1cc2c(cc1C1=NN=C(NC3CC3)SC1)OCCO2` | 82.76 | 80.64 |
| 11 | `O=C(NCCc1cccs1)C1CCNCC1` | 44.94 | - |
| 12 | `CC1=C(C(=O)NC(C)c2nc3ccccc3[nH]2)CCO1` (centres undefined) | 23.4 | - |
| 13 | `CC(C)N1CCN(C(C)C(=O)NC2CC2)CC1` (centres undefined) | -0.7931 | - |
| 14 | `CCC(C)NC(=O)c1nc2ccccc2n(C)c1=O` (centres undefined) | -5.948 | - |
| 15 | `N#Cc1ccc(NCCOc2ccccc2)nc1` | 61.17 | 60.82 |
| 16 | `CCC(C)C(=O)NCCNc1ccc(C(F)(F)F)cn1` (centres undefined) | 67.65 | 77.04 |
| 17 | `Cc1cccc(OC(C)CN)c1` (centres undefined) | 5.555 | -3.017 |
| 18 | `Cc1cc(C(=O)NC2CC2)cc(S(=O)(=O)N(C)C)c1C` | 3.153 | - |
| 19 | `Cc1ccc2nc(CCN)oc2c1` | 60.65 | 62.41 |
| 20 | `O=c1c2cccc(F)c2ncn1CCOCCO` | - | -9.714 |
| 21 | `CCC(C)(CCO)NC(=O)c1ccc[nH]1` (centres undefined) | - | 5.16 |
| 22 | `COc1cccc(CN(C)C(=O)c2occc2C)n1` | 64.15 | 54.79 |
| 23 | `Nc1ncccc1CN1C[C@@H]2CCC[C@H](C1)C(=O)N2` | 24.29 | - |
| 24 | `Cn1c(SCC(N)=O)nc2ccsc2c1=O` | 6.343 | - |
| 25 | `NCCNS(=O)(=O)c1cccc(OC(F)(F)F)c1` | 41.83 | 14.65 |
| 26 | `CC(C)C(N)c1nnc2n1CCC2` (centres undefined) | - | -7.447 |
| 27 | `CN(Cn1nnc2ccccc2c1=O)C1CCCC1` | 17.41 | - |
| 28 | `O=C(NCCSC(F)(F)F)Nc1cccc2[nH]nnc12` | 82.55 | 73.95 |
| 29 | `NC(=O)C1CCCCN1CC(=O)NC1CCCCC1` (centres undefined) | - | -12.52 |
| 30 | `Cc1cc(C(=O)NCc2cccc(F)c2)no1` | 74.14 | 53.84 |
| 31 | `CCn1cc(S(=O)(=O)NCc2ccccc2F)cn1` | 27.57 | - |
| 32 | `COC(=O)c1cc(C#N)ccc1F` | - | -9.915 |
| 33 | `COc1ccccc1C1CCN(C(=O)CCCN)C1` (centres undefined) | - | 22.91 |
| 34 | `Cc1cccnc1NC(=O)COc1c(O)ccnc1C` | -6.441 | - |
| 35 | `COC(CN)C(C)(C)C` (centres undefined) | - | -11.27 |
| 36 | `COc1ncccc1CN(C)C(=O)CNC(C)=O` | 7.481 | -5.031 |
| 37 | `CC(O)C(=O)N1C[C@H]2CN(C(=O)OC(C)(C)C)C[C@H]2C1` (some centres undefined) | 18.31 | - |
| 38 | `CCN1CCN(C(C)c2nc(C)no2)CC1` (centres undefined) | - | 6.815 |
| 39 | `CC1(C)Cc2cc(CN)ccc2O1` | -0.2265 | - |
| 40 | `Cc1ccc(S(=O)(=O)N2CCC[C@@H](N)C2)c(C)c1` | 76.47 | 57.67 |
| 41 | `COCCN1CCCN(C(=O)c2ccccc2Cl)CC1` | 21.29 | 10.06 |
| 42 | `COC(=O)C(C)OC(=O)c1cccnc1SC` (centres undefined) | 50.32 | 26.49 |
| 43 | `c1ccc(-c2n[nH]c(C3CCNCC3)n2)cc1` | 17.6 | - |
| 44 | `O=C(c1ccccn1)N1CCC2(CCCC2)CC1` | 68.87 | 75.91 |
| 45 | `COc1ccc(-c2ccnc(CO)c2)c(OC)c1` | 43.99 | - |
| 46 | `CCOC(=O)CCN(C)CCNC` | -1.095 | - |
| 47 | `CCOc1ccc(Cn2nc(COC)oc2=O)nc1` | 66.01 | 71.84 |
| 48 | `NC1CCCc2sccc21` (centres undefined) | 9.066 | 10.76 |
| 49 | `NC1CCN(C(=O)c2ccccc2Cl)C1` (centres undefined) | 2.775 | - |
| 50 | `CCCn1ncc(CN(C)CCC(=O)NC)c1C` | - | -13.13 |
| 51 | `Cn1ccnc(Cl)c1=O` | -1.29 | - |
| 52 | `O=S(=O)(NC1CCCNC1)c1cccc(F)c1` (centres undefined) | - | 14.81 |
| 53 | `O=C(c1cn[nH]c1)N1CCC(O)(CN2CCCC2)CC1` | 4.528 | - |
| 54 | `O=S1(=O)CCCC1CNCc1cccc2cccnc12` (centres undefined) | 18.37 | - |
| 55 | `OCCNCc1ccc(F)cc1C(F)(F)F` | 2.293 | - |
| 56 | `CC(C)(N)C(C)(C)CO` | 0.7919 | - |
| 57 | `CCS(=O)(=O)N(C)C1CCN(c2nc(C)ns2)CC1` | 18.38 | - |
| 58 | `COc1ccc(C(N)CCO)cc1` (centres undefined) | - | -8.046 |
| 59 | `NC(=O)c1cnc(NC2CCc3ccccc32)c(Cl)c1` (centres undefined) | 86.6 | 83.09 |

Some entries from above, unchanged:

- CC(N)c1nc(-c2ccc(Br)cc2)c[nH]1 (centres undefined) : Mtb glucose medium: 91.69%; Mtb cholesterol medium: 101.6%
- Cn1c(SCC(N)=O)nc2ccsc2c1=O : Mtb glucose medium: 6.343%
- Cc1cccnc1NC(=O)COc1c(O)ccnc1C : Mtb glucose medium: -6.441%
- COC(=O)C(C)OC(=O)c1cccnc1SC (centres undefined) : Mtb glucose medium: 50.32%; Mtb cholesterol medium: 26.49%
- COc1ncccc1CN(C)C(=O)CNC(C)=O : Mtb glucose medium: 7.481%; Mtb cholesterol medium: -5.031%
- O=c1c2cccc(F)c2ncn1CCOCCO : Mtb cholesterol medium: -9.714%